Experimental data published in article doi:10.1101/2021.12.08.471876 (bioRxiv, 2021).

Target: purified recombinant GRP78 protein (GRP78-His) (human, NT-647 fluorescent label (in the MST only))
Experiment: MST

B1: GST-preS1 truncated protein preS1-p1 ([…]) (domain or fragment)
chain: not shown
In the case of B1, the Kd is reported as 899 nM.
